Reference: paper PMC6934550 (Scientific Reports, 2019)
Structures can show the parent of a compound that is named as a salt.

Test system: EBOV/Mak
Parameters: species or system Rhesus macaques
Conditions: rhesus monkey, in vivo

SMILES: CCN(CC)Cc1cc(Nc2ccnc3cc(Cl)ccc23)ccc1O [Amodiaquine dihydrochloride hydrate, amodiaquine dihydrochloride dihydrate]
- survival / efficacy: no in vivo efficacy
